From US20090311265A1 (CRUCELL HOLLAND B V, published 2009)

B1: CR6342 (antibody, V domains shown)
VH: QVQLVQSGAEVKKPGSSVKVSCKASGGFFSSYAISWVRQAPGQGLEWMGGVIPIFRTANYAQNFQGRVTITADEFTSYMELSSLRSDDTAVYYCARLNYHDSGTYYNAPRGWFDPWGQGTLVTVSS
VL: DIQMTQSPDSLAVSLGEKATINCKSSQSILNSSNNKNYLAWYQQKPGQPPKLLIYWASTRESGVPDRFSGSGSGTDFTLTISSLQAEDVAVYYCQQYYSSPPTFGQGTKVEIKR
B2: CR6329 (antibody, V domains shown)
VH: EVQLVQSGAEVKKPGSSVKVSCKASGGIFRSNSISWVRQAPGQGLEWMGGIFALFGTTDYAQKFQGRVTITADESSTTVYLELSSLTSEDTAVYYCARGSGYTTRNYFDYWGQGTLVTVSS
VL: EIVLTQSPGTLSLSPGERATLSCRASQSVSSNYLGWYQQKPGQAPRLLIYGASSRASGIPDRFSGGGSGTDFTLTISRLEPEDFAVYYCQQYGSSPLTFGGGTKVEIKR
B3: CR6325 (antibody, V domains shown)
VH: EVQLVESGAEVKKPGSSVKVSCKASGGTFSFYSMSWVRQAPGQGLEWMGGIIPMFGTTNYAQKFQGRVTITAVESTSTAYMEVSSLRSEDTAVYYCARGDKGIYYYYMDVWGKGTTVTVSS
VL: QSALTQPASVSGSPGQSITISCTGTSSDVGGYNYVSWYQQHPGKAPKLMIYEVSNRPSGVSNRFSGSKSGNTASLTISGLQAEDEADYYCSSYTSSSTLVFGTGTKVTVLG

Legend:
[1] = target: recombinant HA, subtype H1 (A/New Caledonia/20/99 (H1N1)) (influenza A virus A/New Caledonia/20/99 …, UniProt Q289M7 18-565); assay: ELISA, coated HA, IgG 5 µg/ml
[2] = target: recombinant HA, subtype H5 (A/Vietnam/1203/2004 (H5N1)) (influenza A virus A/Vietnam/1203/2004 …, UniProt Q80A26 6-554); assay: ELISA, coated HA, IgG 5 µg/ml

| Binder | OD 492 nm [1] [OD 492 nm] | OD 492 nm [2] [OD 492 nm] |
| --- | --- | --- |
| B1 | 1.99 | 1.25 |
| B2 | 1.98 |  |
| B3 | 1.42 | 1.3 |
